ChEMBL document CHEMBL4371047, “Effect of α-Methoxy Substitution on the Anti-HIV Activity of Dihydropyrimidin-4(3 H)-ones” (J Med Chem, 2019)

Tests used:
[1] = system: Human immunodeficiency virus type 1 reverse transcriptase (Human immunodeficiency virus 1), Q72547 [Y181I]
[2] = system: Human immunodeficiency virus type 1 reverse transcriptase (Human immunodeficiency virus 1), Q72547 [K103N]
[3] = system: Human immunodeficiency virus type 1 reverse transcriptase (Human immunodeficiency virus 1), Q72547 [L100I]

Row | Compound | ID50 [1] [µM] | ID50 [2] [µM] | ID50 [3] [µM]
1 | CCC(C)Sc1nc(C(CC)c2c(F)cccc2F)c(C)c(=O)[nH]1 (stereo not drawn) | 4 | – | –
2 | CCC(c1nc(SC2CCCC2)[nH]c(=O)c1C)c1c(F)cccc1Cl (stereo not drawn) | 6 | – | –
3 | Cc1c(C(C)c2c(F)cccc2Cl)nc(SC(C)C)[nH]c1=O (stereo not drawn) | 200 | 1.4 | –
4 | CCC(C)Sc1nc(C(CC)c2c(F)cccc2Cl)c(C)c(=O)[nH]1 (stereo not drawn) | 5.9 | – | –
5 | CCC(c1nc(SC2CCCC2)[nH]c(=O)c1C)c1c(F)cccc1F (stereo not drawn) | 4.9 | – | –
6 | Cc1c(O)nc(SC(C)C)nc1C(C)c1c(F)cccc1F (stereo not drawn) | 47 | – | –
7 | CCC(C)Sc1nc(O)c(C)c(C(C)c2c(F)cccc2F)n1 (stereo not drawn) | 96 | – | –
8 | CCC(C)Sc1nc(C(C)c2c(F)cccc2Cl)c(C)c(=O)[nH]1 (stereo not drawn) | 35 | 1.75 | 0.075
9 | CCC(c1nc(SC(C)C)[nH]c(=O)c1C)c1c(F)cccc1F (stereo not drawn) | 4.1 | – | –
10 | CCC(c1nc(SC(C)C)[nH]c(=O)c1C)c1c(F)cccc1Cl (stereo not drawn) | 7.7 | – | –
